The list shows a part of the results, in another mix than the full data. Calls of active or inactive are those of the source. Cut-off read from the data, not from the text of the source: active = inhibition above about 38%; inactive = the rest.
Biological target: Serine protease Rv3671c (Mycobacterium tuberculosis (strain ATCC 25618 / H37Rv)) (UniProt P9WHR9)
Assay: M. tuberculosis Rv3671c protease inhibition confirmation – biochemical, fluorescence polarization, M. tuberculosis H37Rv (AID 2761)
Settings: at 5.96 µM; active compounds read high

Sequences of proteins named here, by UniProt entry; tags and fusion partners are left off. A change or cut given only in a name is not applied to a line headed by its entry.
UniProt P9WHR9: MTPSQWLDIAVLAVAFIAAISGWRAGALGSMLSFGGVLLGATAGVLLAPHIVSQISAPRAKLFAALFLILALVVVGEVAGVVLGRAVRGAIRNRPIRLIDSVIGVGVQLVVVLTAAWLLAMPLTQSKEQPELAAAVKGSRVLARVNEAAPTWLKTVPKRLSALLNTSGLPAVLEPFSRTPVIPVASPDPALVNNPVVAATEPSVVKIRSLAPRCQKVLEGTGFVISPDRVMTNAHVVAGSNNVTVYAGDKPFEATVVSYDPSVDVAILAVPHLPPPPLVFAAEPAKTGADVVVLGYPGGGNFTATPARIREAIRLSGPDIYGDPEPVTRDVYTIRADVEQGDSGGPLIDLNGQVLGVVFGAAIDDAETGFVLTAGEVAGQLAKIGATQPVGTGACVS

O=[N+]([O-])c1cc([N+](=O)[O-])c(CCNc2ccccc2)c([N+](=O)[O-])c1
inhibition: inactive: 7.31%

From PubChem BioAssay AID2761 (The Scripps Research Institute Molecular Screening Center, 2010)
